# Experimental data taken from PubChem BioAssay AID504832 (National Center for Advancing Translational Sciences (NCATS), 2011).
# The entries are a selection whose mix differs from that of the whole data set. Records with an inconclusive call do not appear. Calls of active or inactive are those of the source. The call rests on the fitted dose curve; in most records, active means well fitted inhibition curve with a large enough effect; inconclusive means small, poorly fitted or top-dose-only effect, or another doubt; inactive means no such curve, though single readings can be large or run the other way.
# Experiment: Primary qHTS for delayed death inhibitors of the malarial parasite plastid, 48 hour incubation
# Settings: P. falciparum luciferase growth in erythrocytes; series mostly up to 28.7 µM; activity change, negative = inhibition: at the top concentration
# Source text: The goal of this screen is to discover new antimalarial compounds that act by inhibiting the development of the apicoplast in the malarial parasite Plasmodium falciparum. The biochemical processes that make this organelle essential for erythrocytic stage parasites are not well understood. However, antibiotics such as azithromycin and tetracycline, which target the apicoplast translational machinery, have a potent antimalarial effect.
# We have developed a cell-based assay that measures parasite growth based on the expression of an integrated copy of a firefly luciferase reporter. To detect small molecules that cause this "delayed death" phenotype, erythrocytes infected with the luciferase-expressing parasites were incubated with compounds for either one or two generations, corresponding to 48 and 96 hours, respectively. Compounds that inhibit parasite growth in the second generation, but not the first, should be enriched in antimalarials that target the apicoplast. Growth inhibition is detected by a decrease in luciferase activity.
# Assay Provider: David Fidock and Eric Ekland, Columbia University
# Keywords: NIH Roadmap, MLPCN, MLI, MLSMR, qHTS, NCGC, qHTS, malaria, luciferase, viability
# Four microliters of culture medium (RPMI 1640 with 0.5% w/v Albumax (GIBCO), 24 mM sodium bicarbonate and 10 ug/mL gentamycin) were dispensed by a Multi-drop Combi into white solid 1536-well plates (Grenier) and 23 nL compound was added by a pin tool. Four microliters of infected erythrocytes (2% hematocrit, 0.1% parasitemia final concentration) in culture medium were dispensed and the plates incubated for 48 hours at 37 C in 5% CO2. Two microliters of luciferase detection reagent was added and luminescence was detected by a ViewLux (PerkinElmer) reader.
# On the % scale 0 is the no-effect control and ±100 the full control effect; potency means the concentration at half of the fitted maximal effect.
Compound,"activity change, negative = inhibition",Potency
CCOP(=O)(Nc1ccc(C)cn1)OCC,inactive: -4.04%,
Clc1n[nH]nc1-c1nn[nH][15n]1,inactive: 16.7%,
CC(C)/C=N\N=C(\N)N[N+](=O)[O-],inactive: 7.84%,
O=[As](O)(c1ccccc1Br)c1ccccc1Br,inactive: -9.75%,
C=C(C=O)CC1CC(O)[C@]2(C)OC3CC4OC5C[C@]6(C)O[C@]7(C)CCC8OC9C[C@]%10(C)OC%11C(C)=CC(=O)OC%11CC%10OC9C[C@@H](C)C8OC7CC6O[C@]5(C)CC5OC5C4OC3CC2O1 (stereo not given in full),,active: 1.85 µM
Cc1ccc(C(=O)OC2CN3CCC2CC3)cc1 (stereo not given),inactive: 3.58%,
O=C(/C=C/c1ccccc1)OC1CN2CCC1CC2 (stereo not given),inactive: -9.93%,
Nc1cccc([As](=O)(O)c2ccccc2)c1,,active: 3.29 µM
O=P1(Nc2ccc(Br)cn2)COc2ccccc2OC1,inactive: 11.3%,
NS(=O)(=O)c1cccc(NC(=O)COC(=O)C(O)(c2ccccc2)c2ccccc2)c1,inactive: -8.24%,
Cc1ccc(OCC(=O)OC2CN3CCC2CC3)cc1 (stereo not given),inactive: 5.9%,
O=[As](O)(c1cccs1)c1cccs1,,active: 10.4 µM
O=P(Nc1ccccn1)(c1ccc(Br)cc1)c1ccc(Br)cc1,inactive: -19.5%,
O=P(Nc1nc2ccccc2s1)(c1ccccc1)c1ccccc1,inactive: -11.1%,
C[C@H]1OP(=O)(Oc2ccccc2)[C@H](O)[C@H](O)[C@H]1N=[N+]=[N-] (stereo not given in full),inactive: 5.96%,
O=[As](O)(c1ccccc1)c1ccc(O)cc1,,active: 1.31 µM
O=[N+]([O-])c1ccc(O)c(/C=N/Nc2ccc([N+](=O)[O-])cc2[N+](=O)[O-])c1,inactive: 0%,
O=[N+]([O-])c1ncn(CCn2cnc([N+](=O)[O-])n2)n1,inactive: 16.4%,
O=C(OC1CN2CCC1CC2)c1cccc(Cl)c1 (stereo not given),inactive: 28.4%,
Nc1ccc([As](=O)(O)c2ccc([N+](=O)[O-])cc2)cc1,,active: 13.1 µM
C(Cc1nn[nH]n1)Cc1nn[nH]n1,inactive: 3.72%,
CC(C)C(=O)NC(Sc1ccccc1)C(Cl)(Cl)Cl (stereo not given),inactive: 2.49%,

Compound,"activity change, negative = inhibition",Potency
O=P(Nc1nccs1)(c1ccccc1)c1ccccc1,inactive: 6.94%,
c1nnnn1CCn1cnnn1,inactive: 9.47%,
CCOc1ccc(C2=NCC(CBr)S2)cc1 (stereo not given),inactive: 75.1%,
CC(C)(C)C(=O)NC(Sc1ccccc1)C(Cl)(Cl)Cl (stereo not given),inactive: -10.3%,
C[C@@H]1C=CCP(=O)(Oc2ccccc2)O1 (stereo not given in full),inactive: 1.98%,
C[C@H]1OP(=O)(Oc2ccccc2)C[C@@H]2O[C@@H]21 (stereo not given in full),inactive: 27.4%,
CC(=O)c1ccc(N2CC2c2ccncc2)cc1 (stereo not given),inactive: 0.0449%,
CC(=O)Nc1ccc([As](=O)(O)O)c(O)c1,,active: 4.15 µM
CC(=O)Nc1ccc(Oc2c([N+](=O)[O-])cc([N+](=O)[O-])cc2[N+](=O)[O-])cc1,inactive: 9.64%,
Cc1ccc(NP(=O)(Oc2cccc(C)c2)Oc2cccc(C)c2)nc1,inactive: 8.54%,
CCOC(=O)NC(Sc1ccccc1)C(Cl)(Cl)Cl (stereo not given),inactive: 15.5%,
CCNC(=S)/N=C(\N)N[N+](=O)[O-],inactive: 7.58%,
O=C(NC1CCS(=O)(=O)C1)NP(=S)(Oc1ccccc1)Oc1ccccc1 (stereo not given),inactive: 0%,
O=C(OC1CN2CCC1CC2)c1ccccc1 (stereo not given),inactive: 4.09%,
CCC(=O)N1C2C3N(C(=O)CC)C1C1N(C(=O)CC)C(C(N1C(=O)CC)N3C(=O)CC)N2C(=O)CC,inactive: -19.6%,
COC(=O)c1cc2c(s1)N=C(c1ccccc1)N(C)P2(=O)N1CCOCC1 (stereo not given),inactive: -13.1%,
Cc1ccccc1OP(=O)(Nc1ccccn1)Oc1ccccc1C,inactive: -21.7%,
O=C(O)c1ccccc1[As](=O)(O)O,,active: 0.329 µM
CC(=O)Nc1ccc([As](=O)(O)O)cc1,,active: 5.22 µM
CCOP(=O)(Nc1ccccc1)OCC,inactive: 0.765%,
Cc1cc(SC(NC(=O)c2ccc(F)cc2)C(Cl)(Cl)Cl)ncn1 (stereo not given),inactive: 3.71%,
Cc1ccc(NP(=O)(Oc2ccccc2F)Oc2ccccc2F)nc1,inactive: 14.4%,

Compound,"activity change, negative = inhibition",Potency
O=[N+]([O-])c1cc([N+](=O)[O-])c(CCN2CCOCC2)c([N+](=O)[O-])c1,inactive: -12.5%,
Nc1cccc2ccc([As](=O)(O)O)cc12,,active: 6.57 µM
CCN(N=Nc1nonc1N)c1nonc1N,inactive: 13.8%,
Cc1ccc(N/C(=N/P(=O)(N2CCOCC2)N2CCOCC2)N2CCOCC2)cc1,inactive: -16.2%,
NC(=O)c1cc([N+](=O)[O-])cc([N+](=O)[O-])c1N,inactive: 13.2%,
CN1CCCC(OC(=O)C(c2ccccc2)c2ccccc2)C1 (stereo not given),inactive: -17%,
COc1ccccc1OP(=O)(Nc1ccc(C)cn1)Oc1ccccc1OC,inactive: -3.12%,
Cc1ccc(OP(=O)(Nc2nccs2)Oc2ccc(C)cc2)cc1,inactive: -9.24%,
Cc1c2non([O-])c-2c(C)[n+](=O)[n+]1[O-],inactive: -15.8%,
O=C(NC(Sc1ccncn1)C(Cl)(Cl)Cl)c1ccccc1 (stereo not given),inactive: 10.2%,
CC(C)CC(=O)NC(Sc1ccc(Cl)cc1)C(Cl)(Cl)Cl (stereo not given),inactive: 22.1%,
Nc1cc(N)c2nonc2c1[N+](=O)[O-],inactive: 4.96%,
COc1ccc(C2=NCC(CBr)S2)cc1 (stereo not given),inactive: 1.22%,
CC(=O)N1C2C3N(C(C)=O)C1C1N(C(C)=O)C(C(N1C(C)=O)N3C(C)=O)N2C(C)=O,inactive: 7.94%,
CCN(/C(=N/P(=O)(N1CCOCC1)N1CCOCC1)N1CCOCC1)c1ccc(OC)cc1,inactive: 9.51%,
CC(C)=N/N=C(\N)N[N+](=O)[O-],inactive: 32.5%,
CN(C)C(=O)OCCc1n(C)cc[n+]1C,inactive: 3.86%,
O=[N+]([O-])c1ncn(CCn2ncnc2[N+](=O)[O-])n1,inactive: 3.18%,
CC(C)(C)C(=O)NC(Sc1ccncn1)C(Cl)(Cl)Cl (stereo not given),inactive: 6.82%,
O=C(O)CNc1ccc([As](=O)(O)O)cc1,inactive: 12.5%,
O=[N+]([O-])c1cccc(NC2=NCC(CBr)S2)c1 (stereo not given),inactive: 8.88%,
